Numbers after ± are expanded uncertainties.
Experiment: xn = mol fraction of the nth substance listed
Conditions: 101 kPa, Liquid; for speed of sound: Sing-around technique in a fixed-path interferometer; for mass density: Vibrating tube method

CCCCOP(=O)(OCCCC)OCCCC [tributyl phosphate] + CCCCCCCCO
Conditions	mass density [kg/m3]	speed of sound [m/s]
298.15 K, x1 = 0.016	825.66 ± 0.55	1344 ± 3
298.15 K, x1 = 0.032	829.43 ± 0.54	1341 ± 3
298.15 K, x1 = 0.049	833.45 ± 0.52	1337 ± 3
298.15 K, x1 = 0.1	844.7 ± 0.5	1328 ± 3
298.15 K, x1 = 0.2	864.91 ± 0.46	1312 ± 3
298.15 K, x1 = 0.301	883.29 ± 0.43	1300 ± 3
298.15 K, x1 = 0.398	899.38 ± 0.4	1291 ± 3
298.15 K, x1 = 0.502	914.86 ± 0.38	1283 ± 3
298.15 K, x1 = 0.602	928.59 ± 0.36	1277 ± 3
298.15 K, x1 = 0.704	941.3 ± 0.3	1273 ± 3
298.15 K, x1 = 0.803	952.67 ± 0.32	1269 ± 3
298.15 K, x1 = 0.9	962.97 ± 0.31	1267 ± 3
298.15 K, x1 = 0.919	964.88 ± 0.31	1267 ± 3
298.15 K, x1 = 0.946	967.61 ± 0.31	1266 ± 3
298.15 K, x1 = 0.971	970.09 ± 0.3	1266 ± 3
298.15 K, x1 = 1	972.77 ± 0.23	–
303.15 K, x1 = 0.016	822.16 ± 0.55	1327 ± 3
303.15 K, x1 = 0.032	825.92 ± 0.54	1324 ± 3
303.15 K, x1 = 0.049	829.91 ± 0.51	1320 ± 3
303.15 K, x1 = 0.1	841.09 ± 0.49	1311 ± 3
303.15 K, x1 = 0.2	861.18 ± 0.46	1295 ± 3
303.15 K, x1 = 0.301	879.45 ± 0.43	1283 ± 3
303.15 K, x1 = 0.398	895.45 ± 0.4	1274 ± 3
303.15 K, x1 = 0.502	910.85 ± 0.38	1266 ± 3
303.15 K, x1 = 0.602	924.51 ± 0.36	1260 ± 3
303.15 K, x1 = 0.704	937.15 ± 0.34	1256 ± 3
303.15 K, x1 = 0.803	948.47 ± 0.32	1252 ± 3
303.15 K, x1 = 0.9	958.71 ± 0.31	1250 ± 3
303.15 K, x1 = 0.919	960.61 ± 0.31	1250 ± 3
303.15 K, x1 = 0.946	963.32 ± 0.31	1249 ± 3
303.15 K, x1 = 0.971	965.79 ± 0.3	1249 ± 3
303.15 K, x1 = 1	968.46 ± 0.23	–
308.15 K, x1 = 0.016	818.64 ± 0.54	1310 ± 3
308.15 K, x1 = 0.032	822.38 ± 0.54	1307 ± 3
308.15 K, x1 = 0.049	826.35 ± 0.51	1303 ± 3
308.15 K, x1 = 0.1	837.47 ± 0.48	1294 ± 3
308.15 K, x1 = 0.2	857.44 ± 0.46	1278 ± 3
308.15 K, x1 = 0.301	875.61 ± 0.43	1266 ± 3
308.15 K, x1 = 0.398	891.51 ± 0.4	1257 ± 3
308.15 K, x1 = 0.502	906.83 ± 0.38	1249 ± 3
308.15 K, x1 = 0.602	920.42 ± 0.36	1243 ± 3
308.15 K, x1 = 0.704	932.99 ± 0.34	1239 ± 3
308.15 K, x1 = 0.803	944.26 ± 0.32	1236 ± 3
308.15 K, x1 = 0.9	954.45 ± 0.31	1233 ± 3
308.15 K, x1 = 0.919	956.34 ± 0.31	1233 ± 3
308.15 K, x1 = 0.946	959.03 ± 0.31	1232 ± 3
308.15 K, x1 = 0.971	961.49 ± 0.3	1232 ± 3
308.15 K, x1 = 1	964.15 ± 0.23	–
313.15 K, x1 = 0.016	815.1 ± 0.5	1293 ± 3
313.15 K, x1 = 0.032	818.82 ± 0.53	1290 ± 3
313.15 K, x1 = 0.049	822.77 ± 0.51	1286 ± 3
313.15 K, x1 = 0.1	833.83 ± 0.48	1277 ± 3
313.15 K, x1 = 0.2	853.68 ± 0.46	1262 ± 3
313.15 K, x1 = 0.301	871.75 ± 0.43	1249 ± 3
313.15 K, x1 = 0.398	887.57 ± 0.4	1240 ± 3
313.15 K, x1 = 0.502	902.81 ± 0.38	1232 ± 3
313.15 K, x1 = 0.602	916.33 ± 0.35	1226 ± 3
313.15 K, x1 = 0.704	928.84 ± 0.34	1222 ± 3
313.15 K, x1 = 0.803	940.04 ± 0.32	1219 ± 3
313.15 K, x1 = 0.9	950.19 ± 0.31	1216 ± 3
313.15 K, x1 = 0.919	952.06 ± 0.31	1216 ± 3
313.15 K, x1 = 0.946	954.75 ± 0.31	1215 ± 3
313.15 K, x1 = 0.971	957.19 ± 0.3	1215 ± 3
313.15 K, x1 = 1	959.84 ± 0.23	–
318.15 K, x1 = 0.016	811.54 ± 0.54	1277 ± 3
318.15 K, x1 = 0.032	815.24 ± 0.53	1273 ± 3
318.15 K, x1 = 0.049	819.16 ± 0.51	1270 ± 3
318.15 K, x1 = 0.1	830.17 ± 0.48	1260 ± 3
318.15 K, x1 = 0.2	849.91 ± 0.45	1245 ± 3
318.15 K, x1 = 0.301	867.88 ± 0.42	1233 ± 3
318.15 K, x1 = 0.398	883.61 ± 0.4	1223 ± 3
318.15 K, x1 = 0.502	898.78 ± 0.37	1216 ± 3
318.15 K, x1 = 0.602	912.23 ± 0.35	1210 ± 3
318.15 K, x1 = 0.704	924.68 ± 0.34	1206 ± 3
318.15 K, x1 = 0.803	935.82 ± 0.32	1202 ± 3
318.15 K, x1 = 0.9	945.92 ± 0.31	1200 ± 3
318.15 K, x1 = 0.919	947.78 ± 0.31	1199 ± 3
318.15 K, x1 = 0.946	950.45 ± 0.31	1199 ± 3
318.15 K, x1 = 0.971	952.88 ± 0.3	1198 ± 3
318.15 K, x1 = 1	955.52 ± 0.23	–
323.15 K, x1 = 0.016	807.94 ± 0.54	1260 ± 3
323.15 K, x1 = 0.032	811.63 ± 0.53	1257 ± 3
323.15 K, x1 = 0.049	815.54 ± 0.51	1253 ± 3
323.15 K, x1 = 0.1	826.49 ± 0.48	1244 ± 3
323.15 K, x1 = 0.2	846.12 ± 0.45	1229 ± 3
323.15 K, x1 = 0.301	864 ± 1	1216 ± 3
323.15 K, x1 = 0.398	879.65 ± 0.4	1207 ± 3
323.15 K, x1 = 0.502	894.74 ± 0.37	1199 ± 3
323.15 K, x1 = 0.602	908.12 ± 0.35	1194 ± 3
323.15 K, x1 = 0.704	920.51 ± 0.34	1188 ± 3
323.15 K, x1 = 0.803	931.6 ± 0.3	1186 ± 3
323.15 K, x1 = 0.9	941.65 ± 0.31	1183 ± 3
323.15 K, x1 = 0.919	943.5 ± 0.3	1183 ± 3
323.15 K, x1 = 0.946	946.15 ± 0.3	1182 ± 3
323.15 K, x1 = 0.971	948.58 ± 0.3	1182 ± 3
323.15 K, x1 = 1	951.2 ± 0.23	–

— the NIST ThermoML archive (doi:10.1016/j.jct.2013.10.018)
